Results of unrelated studies side by side (data: NIAID ChemDB).

Shared fields: host cell toxicity; cells: MT-4; measure: CC50

Neighbouring rows are from separate reports.

compound,result
Cc1nc(CCCCCCC(=O)c2ccccc2)n2nc(NCCCCCCNCc3cn([C@H]4C=C[C@@H](CO)O4)c(=O)[nH]c3=O)ccc12,29 µM
CC(NC(=O)c1[nH]c2ccc(Cl)cc2c1S(=O)(=O)c1ccccc1)C(N)=O,64 µM
CCc1c(Cc2cccc3ccccc23)nc2n(c1=O)C(OCCO)CS2,<100 µM
CCCCO[C@]12CS(=O)(=O)O[C@@]13C(CN2)O[C@@H](n1cc(C)c(=O)[nH]c1=O)[C@@H]3O[Si](C)(C)C(C)(C)C,18 µM
Cc1cn([C@H]2C=C[C@@H](CO)O2)c(=O)[nH]c1=O,4 µM
Cc1cn([C@@H]2O[C@@H]3CN[C@@]4(C#N)CS(=O)(=O)O[C@@]34[C@H]2O[Si](C)(C)C(C)(C)C)c(=O)[nH]c1=O,101 µM
Nc1ncnc2c1ncn2[C@H]1CC[C@@H](CO)O1,>500 µM
NNC(=O)c1[nH]c2ccc(Cl)cc2c1S(=O)(=O)c1ccccc1,>100 µM
Cc1cccc(Nn2cnc(C)c2C)c1,312 µM
NC(=O)CNC(=O)c1[nH]c2ccc(Cl)cc2c1S(=O)(=O)c1ccccc1,65 µM
Nc1nc(=O)n([C@H]2CC[C@@H](CO)O2)cc1F,20 µM
Nc1ncnc2c1ncn2[C@H]1C[C@@H](O)[C@H](CO)O1,>1000 µM
CCC[C@@]1(CCc2ccccc2)CC(O)=C([C@H](CC)c2cccc(NS(=O)(=O)c3ccc(C(F)(F)F)cn3)c2)C(=O)O1,18.6 µM
Cc1ncn(Nc2cccc(Cl)c2)c1-c1ccccc1,17.48 µM
CCCCCCCCCCCCCCCC(=O)OC[C@H]1O[C@@H](n2cnc3c(N)ncnc32)[C@@H]1CO,>3 µg/mL
OC[C@H]1O[C@@H](On2cnc3c(Cl)ncnc32)CS1,>100 µg/mL
Nc1ncnc2c1ncn2[C@@H]1O[C@H](CO)[C@@H](F)[C@H]1O,1.6 µM
CCN(CC)c1cc(-c2ccc(OCCCCCN)cc2O)on1,35 µM
Cc1cc(C)cc(S(=O)(=O)c2c(C(=O)NCC(=O)NC(C)C(=O)NN)[nH]c3ccc(Cl)cc23)c1,100 µM
CCCc1c(OCC2CCC2)c2cc(Cl)ccc2[nH]c1=O,24 µM
CCN(CC)c1cc(=O)c2ccc(OCCCCC#N)cc2o1,>200 µM
COc1ncnc2c1ncn2O[C@H]1CS[C@@H](CO)O1,>100 µg/mL
CCc1c(Cc2ccccc2)n2c(nc1=O)SCC2OCCO,>100 µM
O=[N+]([O-])c1cnn2c1n[n+]([O-])c1ccc(Cl)cc12,5.7 µM
CCCCC(=O)OC[C@H]1O[C@@H](n2cnc3c(N)ncnc32)[C@@H]1CO,>10 µg/mL
O=S(=O)(O)c1ccc(NS(=O)(=O)c2ccc(-c3ccc(S(=O)(=O)Nc4ccc(S(=O)(=O)O)c5cccc(S(=O)(=O)O)c45)cc3)cc2)c2c(S(=O)(=O)O)cccc12,>500 µg/mL
O=[N+]([O-])c1cnn2c1nnc1ccc(Cl)cc12,1.7 µM
Cc1[nH]c(=S)n(Nc2ccccc2)c1C,181 µM
Cc1nc(CCCCCCC(=O)c2ccccc2)n2nc(NCCCCCCCCCCNCc3cn([C@H]4C=C[C@@H](CO)O4)c(=O)[nH]c3=O)ccc12,24.5 µM
[O-][n+]1nc2c(-c3ccc(F)cc3)cnn2c2cc(Cl)ccc21,>200 µM
Cc1cn([C@H]2C=C[C@@H](CO)O2)c(=O)[nH]c1=O,>100 µM
S=C(NCCc1ccccc1)Nc1nccs1,>100 µg/mL
Cc1cn([C@@H]2O[C@@H]3CN[C@@]4(C(N)=O)CS(=O)(=O)O[C@@]34[C@H]2O)c(=O)[nH]c1=O,>250 µM
Nc1ncnc2c1ncn2[C@@H]1O[C@H](CO)[C@H]1F,>100 µg/mL
CCOC1CSc2nc(=O)c(CC)c(Cc3cccc4ccccc34)n21,<100 µM
CCCCC1(CCc2cccc(NS(=O)(=O)c3ccccn3)c2)COC(=O)C(C(CC)c2cccc(NS(=O)(=O)c3ccccn3)c2)=C1O,36.3 µM
Cc1cn([C@@H]2O[C@@H](CO)[C@H](O)[C@H]2O)c(=O)[nH]c1=O,>1000 µM
Cc1ccc(Nn2c(-c3ccccc3)c(C)[nH]c2=S)cc1Cl,44.29 µM
Nc1nccc2c1nnn2[C@H]1C[C@H](O)[C@@H](CO)O1,>396 µM
O=C(O)c1c(Cl)c(Cl)c(Cl)c(Cl)c1-c1c2cc(I)c(=O)c(I)c-2oc2c(I)c(O)c(I)cc12,>1 µM
CCc1c(OC#CC2CC2)c2cc(F)ccc2[nH]c1=O,10 µM
CCN(CC)c1cc(-c2ccc(OCCCCC3=NCCO3)cc2OC)on1,4.4 µM
Cc1[nH]c(=S)n(Nc2ccccc2Cl)c1-c1ccccc1,162 µM
CCN(CC)CCOc1ccc(NC(=O)COc2ccccc2C(=O)c2ccc(OC)cc2)cc1,8.83 µM
CCCCC1(CCc2cccc(NS(=O)(=O)c3ccccc3)c2)COC(=O)C(C(CC)c2cccc(NS(=O)(=O)c3ccccc3)c2)=C1O,58.8 µM
CCc1c(Cc2ccccc2)nc2n(c1=O)C(OCCO)CS2,>100 µM
Cc1cccc(Nn2c(-c3ccccc3)c(C(C)C)[nH]c2=S)c1,42.63 µM
Cc1cn([C@@H]2O[C@@H]3CN[C@@]4(O[Si](C)(C)C(C)(C)C)CS(=O)(=O)O[C@@]34[C@H]2O[Si](C)(C)C(C)(C)C)c(=O)[nH]c1=O,9.1 µM
COC1CSc2nc(Cc3ccccc3)c(C(C)C)c(=O)n21,<100 µM
Cc1cccc(N2C(=O)CSC2c2c(F)cccc2Cl)n1,31.9 µM
N#Cc1cnn2c1n[n+]([O-])c1ccccc12,54 µM
CCCCO[C@]12CS(=O)(=O)O[C@@]13[C@@H](CN2)O[C@@H](n1cc(C)c(=O)[nH]c1=O)[C@@H]3O,>125 µM
Nc1nccc2c1nnn2[C@@H]1O[C@H](CO)[C@@H](O)[C@H]1O,>398 µM
O=[N+]([O-])c1ccc2c(c1)nnc1c([N+](=O)[O-])cnn12,1.4 µM
Cc1cn([C@@H]2O[C@@H]3CN[C@@]4(C(N)=O)CS(=O)(=O)O[C@@]34[C@H]2O[Si](C)(C)C(C)(C)C)c(=O)[nH]c1=O,108 µM
Cc1nc(CCCCCCC(=O)c2ccccc2)n2nc(NCCCCCCN)ccc12,>10 µM
CCCc1c(OC2CCC2)c2cc(Cl)ccc2[nH]c1=O,94.7 µM
Cc1cn([C@@H]2O[C@@H]3CN[C@@]4(O)CS(=O)(=O)O[C@@]34[C@H]2O[Si](C)(C)C(C)(C)C)c(=O)[nH]c1=O,>250 µM
CC#CCN1c2ccccc2C(=O)N(Cc2ccccc2)S1(=O)=O,60.1 µM
Cc1[nH]c(=S)n(Nc2cccc(F)c2)c1-c1ccccc1,108 µM
O=C1c2ccccc2N(Cc2ccccc2-c2ccccc2)S(=O)(=O)N1Cc1ccccc1,>125 µM
OC[C@H]1O[C@H](On2cnc3c(Cl)ncnc32)CS1,>100 µg/mL
O=C1c2ccccc2N(Cc2ccccc2)S(=O)(=O)N1Cc1ccc(Cl)cc1,37.6 µM
CN[C@@H]1[C@H](O[C@H]2[C@H](O[C@H]3[C@H](O)[C@@H](O)[C@H](N=C(N)N)[C@@H](O)[C@@H]3N=C(N)N)O[C@@H](C)[C@]2(O)C=O)O[C@@H](CO)[C@H](O)[C@H]1O,>200 µM
Cc1cn([C@@H]2O[C@H](CO)[C@@H](F)[C@H]2O)c(=O)[nH]c1=O,>500 µM
Nc1nccc2c1ncn2[C@H]1CC[C@@H](CO)O1,215 µM
CCOC(=O)c1cnn2c1n[n+]([O-])c1ccccc12,143 µM
CCc1c(Cc2ccccc2)nc(SCC2OCCO2)[nH]c1=O,<100 µM
O=[N+]([O-])c1ccc2c(c1)[n+]([O-])nc1c(Br)cnn12,200 µM
O=c1ccn([C@H]2C[C@@H](O)[C@H](CO)O2)c(=O)[nH]1,>100 µM
COc1ncnc2c1ncn2O[C@H]1CO[C@@H](CO)O1,>100 µg/mL
Nc1ccn([C@H]2C[C@@H](O)[C@H](CO)O2)c(=O)n1,>1 µM
CCN(CC)c1cc(-c2ccc(OCCCCC#N)cc2OC(=O)c2ccc([N+](=O)[O-])cc2)on1,5 µM

4 of the rows above, restated:

| compound | result |
|---|---|
| Cc1[nH]c(=S)n(Nc2cccc(F)c2)c1-c1ccccc1 | 108 µM |
| Cc1nc(CCCCCCC(=O)c2ccccc2)n2nc(NCCCCCCNCc3cn([C@H]4C=C[C@@H](CO)O4)c(=O)[nH]c3=O)ccc12 | 29 µM |
| CCN(CC)CCOc1ccc(NC(=O)COc2ccccc2C(=O)c2ccc(OC)cc2)cc1 | 8.83 µM |
| O=C1c2ccccc2N(Cc2ccccc2-c2ccccc2)S(=O)(=O)N1Cc1ccccc1 | >125 µM |

CCn: concentration that lowers growth or viability of the cells by n%.